A mixed list of measured activities; the numbers were collected in NIAID ChemDB.

All rows: whole-cell or culture tests

Zone: diameter of growth inhibition. Inhibition is in % at the dose shown (toxicity tests: loss of growth or viability). Blank or dashed fields: not listed here. MIC50, MIC90 and the like: level of inhibition, or share of isolates inhibited. Neighbouring rows are from separate reports.

SMILES | setting | read by | strain or isolate | dose | endpoint | agent | mutations | value
COC1CCN(c2c(F)cc3c(=O)c(C(=O)O)cn(C4CC4)c3c2F)C1 | - | - | 14 strains | - | MIC90 | Mycobacterium avium complex | - | 4 µg/mL
CC1CN(c2c(F)cc3c(=O)c(C(=O)O)cn(C4CC4)c3c2F)CCN1 | - | - | ATCC 6841 | - | MIC | Mycobacterium fortuitum | - | 0.06 µg/mL
CCC1CN(c2cc3c(cc2F)c(=O)c(C(=O)O)cn3C2CC2)CCN1 | - | - | KD1995 (GYRA D95H) | - | MIC99 | Mycobacterium smegmatis | - | 3.8 µg/mL
CC1CN(c2c(F)cc3c(=O)c(C(=O)O)cn(C4CC4)c3c2C(F)(F)F)CC(C)N1 | - | - | ATCC 6841 | - | MIC | Mycobacterium fortuitum | - | 0.5 µg/mL
CO[C@H]1/C=C/O[C@@]2(C)Oc3c(C)c(O)c4c(O)c(c(/C=N/N5CCN(C)CC5)c(O)c4c3C2=O)NC(=O)/C(C)=C\C=C\[C@H](C)[C@H](O)[C@@H](C)[C@@H](O)[C@@H](C)[C@H](OC(C)=O)[C@@H]1C | - | - | Serovar 8 | 1.25 µg/mL | inhibition | Mycobacterium avium intracellulare | - | 52%
CCC1CCN(c2c(F)cc3c(=O)c(C(=O)O)cn(C4CC4)c3c2F)C1 | - | - | 14 strains | - | MIC90 | Mycobacterium avium complex | - | 8 µg/mL
CCCCCn1cc(/C=N/Nc2nncs2)c2ccccc21 | 48 h | broth dilution | 1173P2 | - | MIC100 | Mycobacterium bovis BCG | - | 3.91 µg/mL
CO[C@H]1/C=C/O[C@@]2(C)Oc3c(C)c(O)c4c(O)c(c(/C=N/N5CCN(C)CC5)c(O)c4c3C2=O)NC(=O)/C(C)=C\C=C\[C@H](C)[C@H](O)[C@@H](C)[C@@H](O)[C@@H](C)[C@H](OC(C)=O)[C@@H]1C | - | - | 20 isolates | - | MIC50 | Mycobacterium avium intracellulare | - | 1 µg/mL
CN(C)c1cc(NC(=O)CNC(C)(C)C)c(O)c2c1C[C@H]1C[C@H]3[C@H](N(C)C)C(=O)C(C(N)=O)=C(O)[C@@]3(O)C(=O)C1=C2O | - | broth dilution | V133 | - | MIC | Mycobacterium abscessus | - | 0.25 µg/mL
Cc1cc(NS(=O)(=O)c2ccc(NC(=O)N3CCC3)cc2)no1 | 21 d | broth dilution / absorbance | 6509/96 clinical isolate | - | MIC100 | Mycobacterium kansasii | - | 16 µM
O=C(Nc1ccc(C(F)(F)F)cc1)c1cc(Br)ccc1OP(=O)(c1ccccc1)c1ccccc1 | 7 d | - | My 235/80 | - | MIC | Mycobacterium kansasii | - | 4 µM
C[C@H]1c2cccc(O)c2C(O)=C2C(=O)[C@]3(O)C(O)=C(C(N)=O)C(=O)[C@@H](N(C)C)[C@@H]3[C@@H](O)[C@@H]21 | - | - | A28315 | - | MIC | Mycobacterium smegmatis | - | 0.06 µg/mL
COc1cc(Cc2cnc(N)nc2N)cc(OC)c1OC | - | - | Isolate 94-539 | - | MBC | Mycobacterium ulcerans | - | >32 µg/mL
CCN(CC)c1nc2c(s1)c1c(O)c3c(O)c(C)c4c(c32)C(=O)[C@@](C)(O/C=C/[C@H](OC)[C@@H](C)[C@@H](OC(C)=O)[C@H](C)[C@H](O)[C@H](C)[C@@H](O)[C@@H](C)/C=C/C=C(/C)C(=O)N1)O4 | - | - | 211-5 | - | MBC | Mycobacterium avium | - | 8 µg/mL
O=C(Nc1ccc(Cl)cc1)c1cc(Cl)ccc1OP(=O)(Oc1ccccc1)c1ccccc1 | 7 d | - | My 235/80 | - | MIC | Mycobacterium kansasii | - | 4 µM
Cc1nn(-c2ccccc2)c2c1C(c1cn(-c3ccccc3)nc1-c1ccc(F)cc1)C1=C(NC(C)(c3cc(O)c(I)cc3Cl)NC1=O)O2 | - | agar diffusion / agar | NCIM 2240 | 0.5 mg/mL | zone | Mycobacterium phlei | - | 7.1 mm
COc1ccc(Cn2cc(/C=N/Nc3nncs3)c3ccccc32)cc1 | 24 h | broth dilution | 1173P2 | - | MIC100 | Mycobacterium bovis BCG | - | 3.91 µg/mL
CCn1cc(C(=O)O)c(=O)c2cc(F)c(N3CC(C)NC(C)C3)nc21 | - | - | ATCC 6841 | - | MIC | Mycobacterium fortuitum | - | 0.5 µg/mL
CN1CC2CCC1CN2c1c(F)cc2c(=O)c(C(=O)O)cn(C3CC3)c2c1F | - | - | 1915112 | - | MIC | Mycobacterium avium complex | - | 4 µg/mL
O=C(Nc1ccc(Cl)cc1)c1cc(Cl)ccc1OP(=O)(OCc1ccccc1)OCc1ccccc1 | 21 d | - | My 6509/96 | - | MIC | Mycobacterium kansasii | - | 32 µM
CN[C@@H]1[C@H](O[C@H]2[C@H](O[C@H]3[C@H](O)[C@@H](O)[C@H](N=C(N)N)[C@@H](O)[C@@H]3N=C(N)N)O[C@@H](C)[C@]2(O)C=O)O[C@@H](CO)[C@H](O)[C@H]1O | - | - | ATCC 13950 | - | MIC | Mycobacterium avium complex | - | ≤12.5 µg/mL
C[C@H]1COC2(CCN(C3=NC(=O)c4cc(C(F)(F)F)cc([N+](=O)[O-])c4S3(=O)=O)CC2)O1 | - | - | - | - | MIC | Mycobacterium marinum | - | 0.037 µg/mL
CC1CN(c2c(F)cc3c(=O)c(C(=O)O)cn(C4CC4)c3c2F)CC(C)N1 | - | - | KD1995 (GYRA D95H) | - | MIC99 | Mycobacterium smegmatis | - | 0.92 µg/mL
CCCCCCNC(=O)Nc1ccc(S(=O)(=O)Nc2cc(C)on2)cc1 | 14 d | broth dilution / absorbance | 235/80 | - | MIC100 | Mycobacterium kansasii | - | 250 µM
CCC1CN(c2c(F)cc3c(=O)c(C(=O)O)cn(C4CC4)c3c2OC)CCN1 | - | - | KD2003 (GYRA D95G) | - | MIC99 | Mycobacterium smegmatis | - | 0.65 µg/mL
O=C(Nc1ccccc1)c1ccccc1OP(=O)(Oc1ccccc1)c1ccccc1 | 7 d | - | My 235/80 | - | MIC | Mycobacterium kansasii | - | 500 µM
CS(C)=O | 24 h | broth dilution | 1173P2 | - | MIC100 | Mycobacterium bovis BCG | - | 6.5 µg/mL
CC1CN(c2c(F)cc3c(=O)c(C(=O)O)cn(C4CC4)c3c2Br)CCN1 | - | - | ATCC 6841 | - | MIC | Mycobacterium fortuitum | - | ≤0.03 µg/mL
COc1c(N2CCNCC2)c(F)cc2c(=O)c(C(=O)O)cn(C3CC3)c12 | - | - | KD2008 (GYRA G89C) | - | MIC99 | Mycobacterium smegmatis | - | 0.94 µg/mL
Cc1nn(-c2ccccc2)c2c1C(c1cn(-c3ccccc3)nc1-c1ccc(F)cc1)C1=C(NC(C)(c3cc(O)cc(O)c3)NC1=O)O2 | - | agar diffusion / agar | NCIM 2240 | 0.5 mg/mL | zone | Mycobacterium phlei | - | 1.5 mm
CO[C@@H]1C[C@@H](C[C@H]2CC[C@H](C)[C@H]([C@@H](C)C(=O)O)O2)O[C@]2(O[C@](C)([C@H]3CC[C@@](C)([C@@H]4O[C@@H]([C@H]5O[C@@](O)(CO)[C@H](C)C[C@@H]5C)C[C@@H]4C)O3)C[C@H]2C)[C@@H]1C | - | resazurin | ATCC BAA-353 | - | MIC | Mycobacterium marinum | G262 | 5 µg/mL
Cc1nn(-c2ccccc2)c2c1C(c1cn(-c3ccccc3)nc1-c1ccc(Cl)cc1)C1=C(NC(C)(c3cc(O)c(I)cc3Cl)NC1=O)O2 | - | agar diffusion / agar | NCIM 5138 | 0.1 mg/mL | zone | Mycobacterium smegmatis | - | 4.2 mm
CC(C)N1CCN(c2c(F)cc3c(=O)c(C(=O)O)cn(C4CC4)c3c2F)CC1 | - | - | KD2003 (GYRA D95G) | - | MIC99 | Mycobacterium smegmatis | - | 5.3 µg/mL
NC1CCN(c2nc3c(cc2F)c(=O)c(C(=O)O)cn3C2CC2)C1 | - | - | ATCC 6841 | - | MIC | Mycobacterium fortuitum | - | 0.06 µg/mL
CC[C@H]1OC(=O)[C@H](C)[C@@H](O[C@H]2C[C@@](C)(OC)[C@@H](O)[C@H](C)O2)[C@H](C)[C@@H](O[C@@H]2O[C@H](C)C[C@H](N(C)C)[C@H]2O)[C@](C)(OC)C[C@@H](C)C(=O)[C@H](C)[C@@H](O)[C@]1(C)O | - | broth dilution | X73 | - | MIC | Mycobacterium abscessus | - | 0.25 µg/mL
COc1c(N2CCN(C(C)C)CC2)c(F)cc2c(=O)c(C(=O)O)cn(C3CC3)c12 | - | - | KD1995 (GYRA D95H) | - | MIC99 | Mycobacterium smegmatis | - | 2.3 µg/mL
Nc1ccc(S(=O)(=O)c2ccc(N)cc2)cc1 | - | - | Isolate 842 | - | MIC | Mycobacterium ulcerans | - | 1 µg/mL
Cc1cc(NS(=O)(=O)c2ccc(NC(=O)N(C(C)C)C(C)C)cc2)no1 | 7 d | broth dilution / absorbance | 6509/96 clinical isolate | - | MIC100 | Mycobacterium kansasii | - | 500 µM
O=C(O)c1cn(-c2ccc(F)cc2F)c2nc(N3CCNCC3)c(F)cc2c1=O | - | - | ATCC 6841 | - | MIC | Mycobacterium fortuitum | - | 0.13 µg/mL
CC(C)N1CCN(c2cc3c(cc2F)c(=O)c(C(=O)O)cn3C2CC2)CC1 | - | - | KD2012 (GYRA G89A) | - | MIC99 | Mycobacterium smegmatis | - | 1.6 µg/mL
O=C1c2ccccc2OP(=O)(c2ccccc2)N1c1ccccc1 | 21 d | - | My 6509/96 | - | MIC | Mycobacterium kansasii | - | 500 µM
CN1C(=O)C2(C3=C(C(=O)c4ccccc4C3=O)C3CCCN32)c2ccccc21 | - | agar diffusion | - | 50 µg/mL | zone | Mycobacterium luteus | - | 9 mm
CC[C@@H](CO)NCCN[C@@H](CC)CO | - | - | 1854-4 | - | MIC | Mycobacterium avium complex | - | 1.9 µg/mL
CN[C@@H]1[C@H](O[C@H]2[C@H](O[C@H]3[C@H](O)[C@@H](O)[C@H](N=C(N)N)[C@@H](O)[C@@H]3N=C(N)N)O[C@@H](C)[C@]2(O)C=O)O[C@@H](CO)[C@H](O)[C@H]1O | - | agar diffusion | - | - | MIC | Mycobacterium luteus | - | 6.25 µg/mL
CCCCCCCCCCNC(=O)Nc1ccc(S(=O)(=O)Nc2cc(C)on2)cc1 | 7 d | broth dilution / absorbance | 6509/96 clinical isolate | - | MIC100 | Mycobacterium kansasii | - | 125 µM
COc1ccc(-c2nn(-c3ccccc3)cc2C2C3=C(NC(C)(c4cc(O)ccc4Cl)NC3=O)Oc3c2c(C)nn3-c2ccccc2)cc1 | - | agar diffusion / agar | NCIM 5138 | 1 mg/mL | zone | Mycobacterium smegmatis | - | 5.2 mm
Cc1cc(NS(=O)(=O)c2ccc(NC(=O)C(=O)Nc3ccc(S(=O)(=O)Nc4cc(C)on4)cc3)cc2)no1 | 14 d | broth dilution / absorbance | 235/80 | - | MIC100 | Mycobacterium kansasii | - | 8 µM
C[C@@H]1CN(c2c(F)c(N)c3c(=O)c(C(=O)O)cn(C4CC4)c3c2F)C[C@H](C)N1 | - | broth dilution | 8 | - | MIC | Mycobacterium avium complex | - | 2 µg/mL
O=C(O)c1cn(C2CC2)c2c(F)c(N3CC4CC3CN4)c(F)cc2c1=O | - | - | 1988557 | - | MIC | Mycobacterium avium complex | - | 2 µg/mL
Brc1ccc(Cn2cc(/C=N/Nc3nncs3)c3ccccc32)cc1 | 24 h | broth dilution | 1173P2 | - | MIC100 | Mycobacterium bovis BCG | - | 3.91 µg/mL
CN1CC2=C(C(=O)c3ccccc3C2=O)C12C(=O)Nc1ccccc12 | - | agar diffusion | - | - | MIC | Mycobacterium luteus | - | 125 µg/mL
CNc1ccc2oc(C[C@@H]3OC4(CC[C@@H]3C)O[C@H](C(C)C(=O)c3ccc[nH]3)[C@H](C)C[C@H]4C)nc2c1C(=O)O | - | resazurin | - | - | MIC | Mycobacterium aurum | - | 0.08 µg/mL
Cc1nn(-c2ccccc2)c2c1C(c1cn(-c3ccccc3)nc1-c1ccc(Cl)cc1)C1=C(NC(C)(c3cc(O)c(Cl)c(O)c3)NC1=O)O2 | - | agar diffusion / agar | NCIM 5138 | 1 mg/mL | zone | Mycobacterium smegmatis | - | 6.8 mm
CN1CC2=C(C(=O)c3ccccc3C2=O)C12C(=O)Nc1ccc(I)cc12 | - | agar diffusion | - | 50 µg/mL | zone | Mycobacterium luteus | - | 15 mm

A second listing of 5 rows from above:

SMILES,setting,read by,strain or isolate,dose,endpoint,agent,mutations,value
CCC1CN(c2c(F)cc3c(=O)c(C(=O)O)cn(C4CC4)c3c2OC)CCN1,-,-,KD2003 (GYRA D95G),-,MIC99,Mycobacterium smegmatis,-,0.65 µg/mL
CN1CC2=C(C(=O)c3ccccc3C2=O)C12C(=O)Nc1ccc(I)cc12,-,agar diffusion,-,50 µg/mL,zone,Mycobacterium luteus,-,15 mm
CN[C@@H]1[C@H](O[C@H]2[C@H](O[C@H]3[C@H](O)[C@@H](O)[C@H](N=C(N)N)[C@@H](O)[C@@H]3N=C(N)N)O[C@@H](C)[C@]2(O)C=O)O[C@@H](CO)[C@H](O)[C@H]1O,-,-,ATCC 13950,-,MIC,Mycobacterium avium complex,-,≤12.5 µg/mL
COC1CCN(c2c(F)cc3c(=O)c(C(=O)O)cn(C4CC4)c3c2F)C1,-,-,14 strains,-,MIC90,Mycobacterium avium complex,-,4 µg/mL
CN1C(=O)C2(C3=C(C(=O)c4ccccc4C3=O)C3CCCN32)c2ccccc21,-,agar diffusion,-,50 µg/mL,zone,Mycobacterium luteus,-,9 mm